Source: US20240317834A1, “COMPOSITIONS AND METHODS FOR NEUROLOGICAL DISEASES” (CODA BIOTHERAPEUTICS, published 2024)
Substitutions are numbered along the chain they refer to.

Columns and labels:
[1] = molecular target: T1, CODA535 (L131T, S172D in SEQ ID NO: 33) (human (chimera of human α7-nAChR and …))
T1 chain: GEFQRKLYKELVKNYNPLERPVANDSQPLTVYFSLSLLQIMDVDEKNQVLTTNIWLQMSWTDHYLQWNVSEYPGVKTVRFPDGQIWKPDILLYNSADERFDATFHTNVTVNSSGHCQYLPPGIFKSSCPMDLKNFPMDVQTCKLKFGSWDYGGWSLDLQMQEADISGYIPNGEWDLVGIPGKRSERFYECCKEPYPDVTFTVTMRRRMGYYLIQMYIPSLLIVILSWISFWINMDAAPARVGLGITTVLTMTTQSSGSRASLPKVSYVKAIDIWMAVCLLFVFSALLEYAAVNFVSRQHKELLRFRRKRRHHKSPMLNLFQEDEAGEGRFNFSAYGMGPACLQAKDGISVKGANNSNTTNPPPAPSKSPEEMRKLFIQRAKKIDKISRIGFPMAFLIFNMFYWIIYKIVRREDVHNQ

[2] = molecular target: T2, CODA283 (Y115E_N379K in SEQ ID NO: 33) (human (chimera of human α7-nAChR and …))
T2 chain: T1 chain with Y93E, T109L, D150S, N357K

[3] = molecular target: T3, CODA1025 (R101F, L131G in SEQ ID NO: 33) (human (chimera of human α7-nAChR and …))
T3 chain: T1 chain with R79F, T109G, D150S

B1: α-bungarotoxin conjugated to Alexa Fluor 647 (ligand)
chain: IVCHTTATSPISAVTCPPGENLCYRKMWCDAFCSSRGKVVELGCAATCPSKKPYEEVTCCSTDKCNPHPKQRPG
Normalized AB % [1]: 0.43 ratio to SEQ ID NO: 33 control | Normalized AB % [2]: 1.24 ratio to SEQ ID NO: 33 control | Normalized AB MFI [3]: 0.9 ratio to SEQ ID NO: 33 control
